Assay [1] has as its target histone H4 (UniProt P62805). The assay is described as follows: SPR. To be noted: domain or fragment.
In assay [2] the target is histone H3 (UniProt P68431). Description: SPR. To be noted: domain or fragment.

A word on the Kd: it is the constant that tells how readily two partners part at equilibrium.

Regarding “SARS-CoV-2 spike protein ectodomain (S1 and S2) (from UniProt P0DTC2 14-1213)”, the values for the Kd in assay [1] and in assay [2] were 220 nM and 440 nM, respectively.

Values taken from PMC8907557.
